B1: Monovalent Fc/Fc-ShK(1-35 Q16K) heterodimer (Fc fusion)
chain 1: ERKVECPPCPAPPVAGPSVFLFPPKPKDTLMISRTPEVTCVVVDVSHEDPEVQFNWYVDGVEVHNAKTKPREEQFNSTFRVVSVLTVVHQDWLNGKEYKCKVSNKGLPAPIEKTISKTKGQPREPQVYTLPPSREEMTKNQVSLTCLVKGFYPSDIAVEWESNGQPENNYKTTPPMLDSDGSFFLYSKLTVDKSRWQQGNVFSCSVMHEALHNHYTQKSLSLSPGK
chain 2: ERKVECPPCPAPPVAGPSVFLFPPKPKDTLMISRTPEVTCVVVDVSHEDPEVQFNWYVDGVEVHNAKTKPREEQFNSTFRVVSVLTVVHQDWLNGKEYKCKVSNKGLPAPIEKTISKTKGQPREPQVYTLPPSREEMTKNQVSLTCLVKGFYPSDIAVEWESNGQPENNYKTTPPMLDSDGSFFLYSKLTVDKSRWQQGNVFSCSVMHEALHNHYTQKSLSLSPGKGGGGSGGGGSRSCIDTIPKSRCTAFKCKHSMKYRLSFCRKTCGTC
B2: Bivalent Fc-ShK(1-35, Q16K) homodimer (Fc fusion)
chain: ERKVECPPCPAPPVAGPSVFLFPPKPKDTLMISRTPEVTCVVVDVSHEDPEVQFNWYVDGVEVHNAKTKPREEQFNSTFRVVSVLTVVHQDWLNGKEYKCKVSNKGLPAPIEKTISKTKGQPREPQVYTLPPSREEMTKNQVSLTCLVKGFYPSDIAVEWESNGQPENNYKTTPPMLDSDGSFFLYSKLTVDKSRWQQGNVFSCSVMHEALHNHYTQKSLSLSPGKGGGGSGGGGSRSCIDTIPKSRCTAFKCKHSMKYRLSFCRKTCGTC

Biological target: Kv1.3 voltage-gated potassium channel on T cells in human whole blood (human, UniProt P22001 1-575)
Experiment: cell-based or functional assay

Binder	Potency Relative to ShK (WB, IL2)	WB (IFNg) IC50	WB (IL-2) IC50
B1	2.39 fold	0.499 nM	0.16 nM
B2	27.6 fold	3.14 nM	1.85 nM
